Measured values reported in the supplement of paper PMC9931576.
Human monoclonal antibodies against the spike receptor-binding domain (heavy:light variable regions). IC50 against pseudoviruses bearing the spike of naturally observed variants; lower = stronger; >10 µg/ml means not reached at the top dose. No active / inactive call. The stated detection limit is 0.0005 µg/ml; values near or below 0.001 µg/ml lie at the floor of the assay.

B1: BD55-5537 (protein)
chain 1: QVQLVESGGGVVQPGRSLRLSCAASGFSFSNSGMHWVRQAPGKGLEWVAVISFDGSNQFYADPVKGRFTISRDNSKNTLYLQMNSLRVEDTAVYYCATPIREYSGYDVFDYYDGLDVWGQGTTLTVSS
chain 2: QSVLTQPPSASGTPGQRVTISCSGSSSNIGRDYVYWYQQFPGTAPKLLIHRNDQRPSGVPDRFSGSKSGTSASLAISWLRPEDEADYYCAAWDASLSAWVFGGGTKLTVL
B2: BD55-5551 (protein)
chain 1: EVQLVESGGGLVKPGRSLRLSCSASGFNFGDYAMSWLRQAPGKGLEWLGFIRSKPSGGTTEYAASVDGRFAMSRDDSKSLAYLQMNSLKTEDTAVYYCTRAHYYYGSRGGHLYFDYWGQGTLVTVSS
chain 2: DIQMTQSPSSLSASVGDRVTITCQASQDITNYLSWYQQIPGKAPKLLIYDASNLETGVPSRFSGSGSGTDFTFTISSLQPEDVATYFCQQYDNLPVTFGQGTKLEIK
B3: BD55-5524 (protein)
chain 1: QVQLVQSGSELKKPGASVKVSCKASGYSFSTHAMNWVRQAPGQGLEWMGWIDTNTGNPTYAPGFAGRFVFSLDTSLHSAYLEISGLQADDTAVYYCAREGVAAQYYYYVMDVWGQGTTVTVSS
chain 2: DIQLTQSPSFLSASVGDRVTITCRASQGIGDYLAWYQQKPGKAPQLLIYAASTLQSGVPSRFSGSESGTEFTLTISSLQPEDFAIYYCQQLNTYPVAFGQGTRVEIK
B4: BD55-5512 (protein)
chain 1: QVQLVESGGGVVQPGRSLRLSCAASGFIFSSYVMHWVRQPPGKGLEWVAVISYDGRNKYYADSVKGRFTISRDNSKDTLYLQMNSLRPEDTAVYYCARDMGGLKDSGDFELDYWGQGTLVTVSS
chain 2: QSVLTQPPSASGTPGQRVTISCSGSSSNIGNNYVYWYQQLPGTAPKLLIYRGNQRPSGVPDRFSGSKSGTSASLAISGLRSEDEAEYYCAAWDDSLSGQGVFGGGTKLTVL
B5: BD55-5516 (protein)
chain 1: QVRLVQSGAEVKKPGSSVKVSCEASGGTLSNHVINWVRQAPGQGFEYMGGIVPVFGPPNYAQKFQGRVTITADTSTNTVYLELNSLRSDDTAVYFCARDAASPTYSGYDWLSPGWFDPWGQGTLVTVSS
chain 2: DIVMTQSPDSLAVSLGERATINCKSSQSVLYSSNNKNHLAWYQQKPGLPPRLLIYWASTRESGVPDRFGGSGSGTDFTLTISSLQAEDAAVYYCQQYYSPPLTFGGGTKVEIK
B6: BD-504 (protein)
chain 1: EVQLVESGGGLVQPGGSLRLSCAASGITVRSNYMSWVRQAPGKGLEWVSVIYSGGSTFYADSVKGRFTISRDNSKNTLYLQMNSLRAEDTAVYYCARDLISRGMDVWGQGTTVTVSS
chain 2: DIQLTQSPSSLSASVGDRVTITCRASQGISSYLAWYQQKPGKAPKLLIYAASTLQSGVPSRFSGSGSGTDFTLTISSLQPEDFATYYCQQLNGYPHSAFGPGTKVDIK
B7: BD55-5549 (protein)
chain 1: QLQLQESGPGLVKPSETLSLTCTVSGASITSSDSYWGWIRQPPGKGLEWIGSIYYTGSAYKSPPLKSRVTMSVDTSKNQFSLKVTSLTAADTAVYYCARGRGSPPHYYFYFGLDVWGQGTTVSVS
chain 2: SYELTQPPSVSVSPGQTATITCSGTALPNHYAYWYQQKPGQAPVLVIYTDNERPSGIPERFSGSTSGTTVTLTISGVQAEDEADYYCQSADSNANVVFGGGTKLTVL
B8: BD55-1066 (protein)
chain 1: EVQLVESGGGLVQPGGSLRLSCSASGFTFNKYPMYWVRQDPGKGLAYVSGISSYGDIADYADSVKGRFTISRDNSKNTLYLQMSSLRAEDTAVYYCVKDSGLNSMVVVMEIWGQGTLVTVSS
chain 2: DIRMTQSPSSLSASVGDRLTITCRASQTISQYLNWFQQKPGKAPRLLIFGASSLQNGVPSRFSGSGSGTDFTLTISSLQPEDFATYYCQQSYTNPPTFGGGTKVEIK
B9: BD55-5519 (protein)
chain 1: EVQLLESGGGLVQPGGSLRLSCAASGFTLRSYAMNWVRQAPGKGLEWVSGLGAGGDIRTYSDSVKGRFTISRDDAKNTLFLQMNSLRAEDTAVYFCAKDLGGNVWYDVFEIWGRGTMVTVSS
chain 2: DIQLTQSPSSLSASVGDRVTITCRASQSISNYLNWYQQKVGKAPKLLIYAASSLQSGVPSRFSGSGSGTDFTLTISSLQPEDFATYYCQQSYNTPALTFGGGTTVEI
B10: BD55-5486 (protein)
chain 1: EVQLVETGGGLVQPGGSLRLSCAASDFVVGGNDMSWVRQAPGKGLEWVSGIYSGDTTFYADSVKGRFTISRDRTKNTLYLEMNSLRPEDTAIYYCASQVAGTFDYWGRGAQVTVSS
chain 2: DIQMTQSPSSLSASVGDRVTITCRASQGISNSVAWYQQTPGKAPKLLLYAASRLASGVPSRFSGSGSGTDFTLTISSLQPEDFATYYCQQYYGTPLFGQGTKV
B11: BD55-5514 (protein)
chain 1: QVQLVQSGAEVKKPGSSVKVSCKASGGTFRSHVISWVRQAPGQGLEWMGGFIPLFGTTIYAQAFQGRVMISADESTSTAYMELSSLRSEDTAVYFCARLFPNGDPNSPEDGFDIWGQGTLVTVSA
chain 2: DIQMTQSPSSLSASVGDRVTITCQASQDIGNYLNWYQQKPGKAPKLLIYDASHLETGVPSRFSGSGSGTDFTFTISSLQPEDIATYYCQRYDDLPSYTFGQGTKVEIK
B12: BD55-5484 (protein)
chain 1: QVQLAQSGSELRKPGASVKVSCDTSGHSFTSNAIHWVRQVPGQGLEWMGWINTDTGTPTYAQGFTGRFVFSLDTSARTAYLQISSLKADDTAVYYCARERDYSDYFFDYWGQGTLVTVSS
chain 2: EVVMTQSPASLSVSPGERATLSCRARASLGISTDLAWYQQRPGQAPRLLIYGASTRATGIPARFSGSGSGTEFTLTISSLQSEDSAVYFCQQYANWPLTFGGGTKVEIE

Tests used:
Assay in all cases: pseudovirus neutralization IC50; higher = weaker neutralization
[1] = target: SARS-CoV-2 Omicron BA.1 spike pseudovirus
Experimental: (§1)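 Single-round VSV luciferase pseudovirus mixed with antibody dilutions for 1 h and put on Huh-7 cells for about a day; IC50 from the dose curve.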

[2] = target: SARS-CoV-2 Omicron BA.2 spike pseudovirus
Experimental: as §1

[3] = target: SARS-CoV-2 Omicron BA.2.75 spike pseudovirus
Experimental: as §1

[4] = target: SARS-CoV-2 Omicron BA.5 spike pseudovirus
Experimental: as §1

[5] = target: SARS-CoV-2 Omicron BQ.1.1 spike pseudovirus
Experimental: as §1

[6] = target: SARS-CoV-2 Omicron XBB spike pseudovirus
Experimental: as §1

[7] = target: SARS-CoV-2 early D614G spike pseudovirus
Experimental: as §1

Binder	pseudovirus neutralization IC50 [1]	pseudovirus neutralization IC50 [2]	pseudovirus neutralization IC50 [3]	pseudovirus neutralization IC50 [4]	pseudovirus neutralization IC50 [5]	pseudovirus neutralization IC50 [6]	pseudovirus neutralization IC50 [7]
B1	> 10 µg/mL	> 10 µg/mL	> 10 µg/mL	> 10 µg/mL	> 10 µg/mL	> 10 µg/mL	0.088 µg/mL
B2	> 10 µg/mL	> 10 µg/mL	> 10 µg/mL	> 10 µg/mL	> 10 µg/mL	> 10 µg/mL	> 10 µg/mL
B3	> 10 µg/mL	> 10 µg/mL	> 10 µg/mL	> 10 µg/mL	> 10 µg/mL	> 10 µg/mL	> 10 µg/mL
B4	> 10 µg/mL	> 10 µg/mL	> 10 µg/mL	> 10 µg/mL	> 10 µg/mL	> 10 µg/mL	0.0316 µg/mL
B5	0.367 µg/mL	> 10 µg/mL	> 10 µg/mL	> 10 µg/mL	> 10 µg/mL	> 10 µg/mL	0.0557 µg/mL
B6	> 10 µg/mL	> 10 µg/mL	> 10 µg/mL	> 10 µg/mL	> 10 µg/mL	> 10 µg/mL	0.033 µg/mL
B7	0.0265 µg/mL	0.0576 µg/mL	0.033 µg/mL	0.0363 µg/mL	> 10 µg/mL	> 10 µg/mL	0.0011 µg/mL
B8	> 10 µg/mL	> 10 µg/mL	> 10 µg/mL	> 10 µg/mL	> 10 µg/mL	> 10 µg/mL	> 10 µg/mL
B9	> 10 µg/mL	> 10 µg/mL	> 10 µg/mL	> 10 µg/mL	> 10 µg/mL	> 10 µg/mL	> 10 µg/mL
B10	> 10 µg/mL	> 10 µg/mL	> 10 µg/mL	> 10 µg/mL	> 10 µg/mL	> 10 µg/mL	0.381 µg/mL
B11	0.00169 µg/mL	0.00722 µg/mL	0.00434 µg/mL	0.00504 µg/mL	0.00478 µg/mL	0.00598 µg/mL	0.0107 µg/mL
B12	0.00319 µg/mL	0.011 µg/mL	0.145 µg/mL	0.0132 µg/mL	> 10 µg/mL	1.09 µg/mL	0.0014 µg/mL
